Values from PubChem BioAssay AID504761 (Drosophila RNAi Screening Center, 2011)
The screen tested about 22,000 reagents; below is an unselected part of those with a known target gene and a result. Over the whole deposit, 116 (0.52%) were called active. 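Calls depend on retest data that are not deposited; infection was ranked per plate without normalising between plates; the unit of the infection score is not given.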 The raw values are shown without normalisation. A number with no mark means an inactive call. Names joined by + are all predicted targets of the reagent. Not all columns of the deposit are shown. Reagent sequences are not shown. The record does not give: the amount of reagent, the time to read-out.

- Assay: 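Genome-wide fly cell screen for genes dengue virus requires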 (primary screen)
- Cells: D.Mel-2 cells from Drosophila
- Reagent: long dsRNA against Drosophila genes
- Conditions: infection with dengue virus type 2; dose and infection time not stated
- Read-out: 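Per well on two replicate plates, imaging gave the percent of cells positive for viral envelope protein, ranked by infection, and a nuclear count of cells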
- Reading the numbers: infection score: higher = more virus-infected cells; cell count: higher = more cells in the well
- Active means: 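Low infection ranks in the two replicates (chance level up to 0.065) followed by a retest with a 1.5-fold or larger significant decrease, p below 0.05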
- Calls: active = confirmed: knock-down lowers infection; inactive = not picked or not confirmed

no.	gene knocked down	dsRNA	infection score, replicate 1	infection score, replicate 2	cell count, replicate 1
1	MED11	DRSC23091	7.21	40.2	5212
2	MED11	DRSC25948	5.53	7.33	6624
3	Or83c	DRSC12359	4.52	5.62	6328
4	ND-B14.5B	DRSC00346	2.3	7.93	6259
5	Uhg3	DRSC22963	1.54	3.49	5920
6	Oscillin	DRSC03001	2.09	1.86	6659
7	Oscillin	DRSC29150	11.3	11.1	4349
8	CG13124	DRSC02220	10.8	27.8	6120
9	CG13124	DRSC27328	11.6	15.6	6518
10	Cec-Psi1	DRSC21956	5.17	2.23	6736
11	RpL3	DRSC16834	2.77	7.4	2093
12	Prx4	DRSC08668	1.01	5.27	6047
13	Prx4	DRSC24543	5.09	5.07	6654
14	l(1)10Bb	DRSC20346	3.9	0.67	3003
15	bif	DRSC18901	1	2.55	6210
16	bif	DRSC20313	3.09	0.53	6658
17	bif	DRSC28382	13.7	6.36	5420
18	eIF4H2	DRSC14582	3.83	9.94	5691
19	eIF4H2	DRSC27363	17.1	7.73	6354
20	snama	DRSC04049	23.4	14.2	5573
21	snama	DRSC28914	18.4	35.8	2704
22	bw	DRSC04005	1.98	3.33	5660
23	bw	DRSC04677	4.87	6.64	6549
24	Ptpmeg	DRSC08684	3.96	5.92	6771
25	Ptpmeg	DRSC26348	6.51	2.83	6639
26	Fpgs2	DRSC00600	7.55	7.39	5989
27	Mccc1	DRSC15417	14.1	5.44	6471
28	Mccc1	DRSC27491	10.5	4.16	5808
29	CG7465	DRSC08592	3.51	3.14	5782
30	CG7465	DRSC22320	2.46	8.45	5734
31	CG7465	DRSC23943	6.93	3.74	5675
32	geko	DRSC10044	3.36	1.29	6763
33	geko	DRSC10045	5.39	2.65	6253
34	CG4962	DRSC10464	4.88	13.9	6004
35	CG11345	DRSC08176	3.72	3.59	6283
36	CG11345	DRSC28509	4.59	4.09	850
37	Phae2	DRSC02555	6.91	8.18	6050

Limited to “infection score, replicate 2” (12 entries from above):
CG13124 [DRSC27328] = 15.6
Cec-Psi1 [DRSC21956] = 2.23
RpL3 [DRSC16834] = 7.4
Prx4 [DRSC08668] = 5.27
Prx4 [DRSC24543] = 5.07
l(1)10Bb [DRSC20346] = 0.67
bif [DRSC18901] = 2.55
bif [DRSC20313] = 0.53
bif [DRSC28382] = 6.36
eIF4H2 [DRSC14582] = 9.94
eIF4H2 [DRSC27363] = 7.73
snama [DRSC04049] = 14.2

The listing continues.
no.	gene knocked down	dsRNA	infection score, replicate 1	infection score, replicate 2	cell count, replicate 1
38	Idua	DRSC02941	11.5	7.31	6528
39	CG14626	DRSC18631	7.04	9.64	6506
40	CG14626	DRSC27786	9.21	14	5676
41	lncRNA:sphinx	DRSC17199	5.29	1.6	5884
42	CG15864	DRSC15122	4.01	5.85	6512
43	CG15864	DRSC25659	6.89	7.24	6461
44	CG8197	DRSC07105	5.97	4.6	5743
45	CG9701	DRSC11093	1.46	3.97	6666
46	CG9701	DRSC26332	2.26	2.57	6206
47	mip40	DRSC06541	10.7	18.4	6270
48	CG42505 + CG42504 + CG31358	DRSC15235	7.47	4.15	6763
49	CG42505 + CG42504 + CG31358	DRSC15308	8.81	6.05	6461
50	CG42505 + CG42504 + CG31358	DRSC15309	4.8	5.81	6499
51	CG2310	DRSC15438	6.04	3.71	6419
52	CG1116	DRSC12166	3.51	3.06	6616
53	CG11134	DRSC19384	18	1.7	6786
54	CG42633	DRSC16061	4.22	9.77	6369
55	His3.3B	DRSC17773	6.1	2.92	6101
56	His3.3B	DRSC18673	2.63	3.76	5774
57	His3.3B	DRSC28380	15.4	15.7	4448
58	His3.3B	DRSC28708	25.2	19.3	5811
59	CG9727	DRSC12585	5.41	11.9	5511
60	CG9727	DRSC28868	19.2	11.6	2966
61	Lrpprc2	DRSC18605	3.07	2.16	5904
62	Lrpprc2	DRSC29751	11.1	12.7	6806
63	CG8008	DRSC07053	6.73	15.1	5929
64	CG8008	DRSC27395	5.11	17.9	6024
65	Amt	DRSC16055	2.55	4.24	6357
66	Amt	DRSC27970	10.9	11.5	6471
67	Ugt302C1	DRSC15353	8.13	12.1	6332
68	Ugt302C1	DRSC24517	3.9	5.04	6057
69	Muc91C	DRSC16297	7.51	19.8	5445
70	Muc91C	DRSC21696	2.98	4	6171
71	Muc91C	DRSC25918	4.84	7.33	5915
72	CG14259	DRSC14754	2.26	5.19	6600
73	daed + CG34174	DRSC27640	4.3	8.36	6907
74	CG31050	DRSC13883	1.39	4.28	6096
